Assay results from patent US20230181723A1 (UNIVERSITY OF MARYLAND COLLEGE PARK, published 2023).

Biological target: T1, HA-tagged HCMV US11 (pEF6-US11, gene synthesised from HCMV AD169 DNA), expressed in HeLa cells (human cytomegalovirus (AD169 DNA as …))
T1 construct: Full-length membrane glycoprotein expressed in transfected HeLa cells and tested in CHAPS lysates; also called HCMV glycoprotein US11; wild-type US11
Assay: GST pull-down from HeLa^US11 lysate

B1: GST-FcRn CT (GST fused to the cytoplasmic tail of human FcRn) (other)
chain: MSPILGYWKIKGLVQPTRLLLEYLEEKYEEHLYERDEGDKWRNKKFELGLEFPNLPYYIDGDVKLTQSMAIIRYIADKHNMLGGCPKERAEISMLEGAVLDIRYGVSRIAYSKDFETLKVDFLSKLPEMLKMFEDRLCHKTYLNGDHVTHPDFMLYDALDVVLYMDPMCLDAFPKLVCFKKRIEAIPQIDKYLKSSKYIAWPLQGWQATFGGGDHPPKRRMRSGLPAPWISLRGDDTGVLLPTPGEAQDADLKDVNVIPATA
notes: also called GST-tagged cytoplasmic tail (CT) FcRn; GST-FcRn CT protein
Does B1 bind?
Result: no binding
